Source: US7074459B2, “Method for preserving wood” (priority 2003, dated 2006)

Legend:
[1] = Percentage weight gain of wood after chemical treatment; settings: 1% treatment, unleached
[2] = ASTM 1413 soil bottles with no fungus (monitor leaching of chemicals); settings: 1% treatment, unleached, 12 weeks

N=C(NCCCCCCNC(=N)NC(=N)Nc1ccc(Cl)cc1)NC(=N)Nc1ccc(Cl)cc1.On1ccccc1=S.On1ccccc1=S [Compound 6, chlorhexidinium di(2-mercapto-pyridine N-oxides)]
WPG (%) Percentage Weight Gain after Chemical Treatment [1]: 4.050%
Wt. Loss % (No Fungus) [2]: 1.14%
